# Test system: HCV
# Settings: 105 patients with no detectable anti-HCV or anti-HBV antibodies
smiles,measurement,value
CC(C)c1nc(CN(C)C(=O)N[C@H](C(=O)N[C@@H](Cc2ccccc2)C[C@H](O)[C@H](Cc2ccccc2)NC(=O)OCc2cncs2)C(C)C)cs1 [ritonavir],"patients with an increase in the ALAT concentrations, control population",11.4%
